# Results: patent US20110186731A1, “LCMS TECHNOLOGY AND ITS USES” (priority 2008, published 2011)
# The amount applied is not stated for every result.
# System: HLA-DR
# Assay: Semiquantification of Neisseria meningitidis OMV-derived HLA-DR epitopes on pulsed MDDC (approach F)
# Type: cell-based, human
# Conditions: PorA-derived epitopes; HLA-DR1 or HLA-DR2 MDDC pulsed with P1.7-2.4 or P1.5-2.10 OMV
row,Sequence,Abundance (copies/cell)
1,AGEFGTLRAGRVA (listed as Neisseria meningitidis) [SEQ ID NO: 86],350 copies/cell
2,RNTGIGNYTQINAAS (listed as Neisseria meningitidis) [SEQ ID NO: 103],30 copies/cell
3,DVSLYGEIKAGVEGRNYQLQ (listed as Neisseria meningitidis) [SEQ ID NO: 75],30 copies/cell
4,KRHDDMSVSVRYDSPEFSGFSGSVQFVPAQNSK (listed as Neisseria meningitidis) [SEQ ID NO: 92],110 copies/cell
5,ATASYRFGNAVPRIS (listed as Neisseria meningitidis) [SEQ ID NO: 100],160 copies/cell
6,GKPGSDVYYAGLNYKNGGFAGNYAFKYARHAN (listed as Neisseria meningitidis) [SEQ ID NO: 98],580 copies/cell
7,AGEFGTLRAGRVANQ (listed as Neisseria meningitidis) [SEQ ID NO: 84],"300-8,250 copies/cell"
8,GEFGTLRAGRVA (listed as Neisseria meningitidis) [SEQ ID NO: 90],350 copies/cell
9,IGNYTQINAASVG (listed as Neisseria meningitidis) [SEQ ID NO: 108],"80-2,000 copies/cell"
10,IRTKISDFGSFIGFK (listed as Neisseria meningitidis) [SEQ ID NO: 78],40 copies/cell

# Same assay, conditions: non-PorA derived epitopes; OMV pulsed MDDC
row,Sequence,Abundance (copies/cell)
1,YRKQYMIERNNLLPT (listed as Neisseria meningitidis) [SEQ ID NO: 125],370
2,SDSQILYHQGRFIVDPA (listed as Neisseria meningitidis) [SEQ ID NO: 118],950
3,EGASGFYVQADAAHAKAS (listed as Neisseria meningitidis) [SEQ ID NO: 115],350
4,ENKRHYIGGILERTQQT (listed as Neisseria meningitidis) [SEQ ID NO: 127],260

# System: HLA-DR2
# Assay: Semiquantification of B. pertussis-derived HLA-DR2 epitopes after processing of whole bacterial cells by MDDC (approach D)
# Type: cell-based, human
# Conditions: HLA-DR2 homozygous MDDC pulsed with whole cell B. pertussis
row,Sequence,Abundance (copies/cell)
1,LAEVLDYHNFVLTQ (listed as Bordetella pertussis) [SEQ ID NO: 61],10
2,GGAEYNLALGQRRA (listed as Bordetella pertussis) [SEQ ID NO: 63],10
3,AAFIALYPNSQLAPT (listed as Bordetella pertussis) [SEQ ID NO: 59],175
4,KPDQGEVVAVGPGKKTED (listed as Bordetella pertussis) [SEQ ID NO: 65],5
5,KPDQGEVVAVGPGKKTEDG (listed as Bordetella pertussis) [SEQ ID NO: 64],80
6,IALYPNSQLAPT (listed as Bordetella pertussis) [SEQ ID NO: 60],25
7,GGAEYNLALGQRRADA (listed as Bordetella pertussis) [SEQ ID NO: 62],350

# System: HLA-DR
# Assay: Semiquantification of HLA-DR presented epitopes from B. pertussis P.69 Prn1 on pulsed MDDC (approach E)
# Type: cell-based, human
# Conditions: pooled MDDC of 9 donors pulsed with rP.69 Prn1
row,Sequence,Abundance (copies/cell)
1,LRDTNVTAVPASGAPA (listed as Bordetella pertussis) [SEQ ID NO: 66],190
2,STLWYAESNALSKRLG (listed as Bordetella pertussis) [SEQ ID NO: 68],310
3,STLWYAESNALSKR (listed as Bordetella pertussis) [SEQ ID NO: 70],370
4,RDTNVTAVPASGAPA (listed as Bordetella pertussis) [SEQ ID NO: 67],70
5,ASTLWYAESNALSKRL (listed as Bordetella pertussis) [SEQ ID NO: 69],90
6,QPAEAGRFKVLTVNTLAGSG (listed as Bordetella pertussis) [SEQ ID NO: 72],750
7,EAGRFKVLTVNTLAGSG (listed as Bordetella pertussis) [SEQ ID NO: 71],75
